Measured values from several laboratories, pooled; numbers as filed in NIAID ChemDB.

Shared fields: tests on isolated targets; agent: HIV-1; protein: Reverse transcriptase; read-out: fold resistance

Conditions beyond the fields shown may differ between rows.

Nc1ccn([C@H]2CC[C@@H](COP(=O)(O)OP(=O)(O)OP(=O)(O)O)O2)c(=O)n1 ; strain: HXB2 ; changes: RT-L74V T215Y ; read by: nucleotide incorporation ; value: 14.7
O=c1c2nccn2c2ccccc2n1CCNC(=S)Nc1ccc(Br)cn1 ; changes: RT-Y181I ; read by: nucleotide incorporation ; value: 5.8
C/C=C/CSc1cc(NC(=S)c2ccsc2C)ccc1Cl ; changes: RT-Y188L ; value: >13.33
CCOc1ccccc1N1CCN(C(=O)c2cc3cc4c(cc3[nH]2)OCO4)CC1 ; strain: IIIB ; changes: RT-Y181C ; value: >9
CCC1(c2cccc(I)c2)Oc2ccccc2-n2cccc2C1=O ; changes: RT-K103N ; read by: nucleotide incorporation / radiometric ; value: >200
O=C(O)Cn1cnc2c(=O)[nH]c(NC(=O)OCc3ccccc3)nc21 ; strain: NNRTI-resistant ; changes: L100I ; read by: nucleotide incorporation / radiometric ; value: 6.38
O=P(O)(O)OP(=O)(O)O ; changes: RT-Q161L ; value: 2.1
CCC1(c2ccc(COc3cccc(Cl)c3)cc2)Oc2ccccc2-n2cccc2C1=O ; changes: RT-L100I ; read by: nucleotide incorporation / radiometric ; value: 2.5
O=C1c2cccnc2C(=O)N1CCNC(=S)Nc1ccc(Br)cn1 ; changes: RT-L100I ; read by: nucleotide incorporation ; value: 10.5
OCc1cn(Cc2ccncc2)c(Sc2cc(Cl)cc(Cl)c2)c1C1CCC1 ; changes: RT-K103N ; read by: nucleotide incorporation / radiometric ; value: 541
Nc1ccn([C@H]2CC[C@@H](COP(=O)(O)OP(=O)(O)OP(=O)(O)O)O2)c(=O)n1 ; changes: RT-Y181I ; read by: RT activity ; value: 2
CCN1c2ncccc2C(=O)N(C)c2ccc(-c3cccc(N)c3)nc21 ; changes: RT-Y181C ; read by: nucleotide incorporation ; value: 1.8
CCN1c2ncccc2C(=O)N(C)c2ccc(-c3c[nH]c4cnccc34)nc21 ; changes: RT-V106A ; read by: nucleotide incorporation ; value: 6.55
O=c1c2cccn2c2ccccc2n1CCNC(=S)Nc1ccc(Cl)cn1 ; changes: RT-L100I ; read by: nucleotide incorporation ; value: 9
CC(C)=CCN1Cc2cccc3[nH]c(=S)n(c23)C[C@@H]1C ; changes: RT-L100I ; read by: RT activity ; value: >22
Nc1ncnc2c1ncn2[C@@H]1O[C@H](COP(=O)(O)OP(=O)(O)OP(=O)(O)O)C[C@@H]1F ; changes: RT-A62V V75I F77L F116Y Q151M ; read by: nucleotide incorporation ; value: 2.7
Nc1nc2c(ncn2[C@H]2C[C@H](O)[C@@H](COP(=O)(O)OP(=O)(O)OP(=O)(O)O)O2)c(=O)[nH]1 ; changes: RT-L74V ; read by: nucleotide incorporation / radiometric ; value: 0.57
Cc1c(C(C)c2c(F)cccc2F)nc(N(C)C)[nH]c1=O ; changes: RT-K103N ; read by: nucleotide incorporation / radiometric ; value: 7
CC[C@]1(c2ccccc2)Oc2cccnc2-n2cccc2C1=O ; changes: RT-K103N ; read by: nucleotide incorporation / radiometric ; value: 8
C=C(C)CCOCc1ccc(C2(CC)Oc3ccccc3-n3cccc3C2=O)cc1 ; changes: RT-K103N ; read by: nucleotide incorporation / radiometric ; value: >3.57
Cc1cc(S(N)(=O)=O)ccc1NC(=O)COc1ccc(Cl)cc1C(=O)c1cc(Cl)cc(C#N)c1 ; changes: RT-V108I ; read by: fluorescence ; value: 1.11
Nc1ccn([C@H]2CC[C@@H](COP(=O)(O)OP(=O)(O)OP(=O)(O)O)O2)c(=O)n1 ; changes: RT-L74V T215Y K219Q ; read by: ELISA ; value: 3.375
Cc1occc1C(=S)Nc1ccc(Cl)c(/C=N/OC(C)(C)C)c1 ; changes: RT-E138K ; value: 1.55
Nc1nc2c(ncn2[C@H]2C=C[C@@H](COP(=O)(O)OP(=O)(O)OP(=O)(O)O)C2)c(=O)[nH]1 ; changes: RT-M184V ; value: 1.47
Cc1c(Cc2c(Cl)cccc2Cl)nc(Sc2ccc(C#N)cc2)[nH]c1=O ; changes: RT-K103N ; value: >17.4
CC(C)=CCOc1cc(NC(=S)c2ccoc2C)ccc1Cl ; changes: RT-E138K ; value: 0.66
CCc1c(Sc2ccccn2)n(COCc2ccccc2)c(=O)[nH]c1=O ; changes: RT-T181C ; read by: RT activity ; value: 53
NC(=O)OCc1cn(Cc2ccncc2)c(Sc2cc(Cl)cc(Cl)c2)c1C1CCC1 ; changes: RT-Y181I ; read by: nucleotide incorporation / radiometric ; value: 3750
CN(C)P(=O)(c1ccccc1)c1c(C(N)=O)[nH]c2ccc(Cl)cc12 ; changes: RT-K103N Y181C ; value: >3.57
CCC1(c2cccc(Cl)c2)Cc2ccccc2-n2cccc2C1=O ; changes: RT-Y188L ; read by: nucleotide incorporation / radiometric ; value: >3
CCN1c2ncc(CS(=O)(=O)c3ccccc3)cc2C(=O)N(C)c2ccc(Cl)nc21 ; changes: RT-Y188L ; read by: RT activity ; value: 110
CC(C)Nc1cccnc1N1CCN(C(=O)c2cc3cc4c(cc3[nH]2)OCO4)CC1 ; strain: IIIB ; changes: RT-P236L ; value: 7.5
Nc1cc(Cl)nc(SCc2ccc3ccccc3c2)n1 ; changes: RT-P236L ; read by: nucleotide incorporation ; value: 0.32
Nc1ncnc2c1ncn2[C@H]1CC[C@@H](COP(=O)(O)OP(=O)(O)OP(=O)(O)O)O1 ; changes: RT-A62V V75I F77L F116Y Q151M ; read by: nucleotide incorporation ; value: 8.8
Cc1c(Cc2c(F)cccc2F)nc(Sc2ccccc2)[nH]c1=O ; changes: RT-K103N ; value: >12.5
CCNc1cccnc1N1CCN(C(=O)c2cc3cc4c(cc3[nH]2)OCO4)CC1 ; strain: IIIB ; changes: RT-P236L ; value: 20
CN(C)c1nc(Cc2c(F)cccc2F)cc(=O)[nH]1 ; strain: IIIB ; changes: RT-Y181I ; read by: nucleotide incorporation / radiometric ; value: 37.5
Cc1cc(C)cc(S(=O)(=O)c2c(C(=O)NNCCO)[nH]c3ccc(Cl)cc23)c1 ; changes: RT-Y188L ; read by: nucleotide incorporation / radiometric ; value: >666
Cc1cc2c(cc1C)n1cccc1c(=O)n2CCNC(=S)Nc1ccc(Br)cn1 ; changes: RT-Y188L ; read by: nucleotide incorporation ; value: 10
Cc1c(Cc2c(Cl)cccc2Cl)nc(Sc2ccc(F)cc2F)[nH]c1=O ; changes: RT-K103N ; value: >40
CCN1c2ncccc2C(=O)Nc2c(C)cc(NCCO)nc21 ; changes: RT-Y181C ; read by: nucleotide incorporation ; value: >11.11
Nc1ncnc2c1ncn2[C@H]1CC[C@@H](COP(=O)(O)OP(=O)(O)OP(=O)(O)O)O1 ; changes: RT-K65R ; read by: nucleotide incorporation / radiometric ; value: 12.63
Cc1c(Sc2ccccc2)n(COCCO)c(=O)[nH]c1=O ; changes: RT-K103N ; value: >10
Cc1c(Cc2c(F)cccc2F)nc(Sc2ccc(F)cc2F)[nH]c1=O ; changes: Y181I ; value: >13.3
Nc1ncnc2c1ncn2[C@H]1CC[C@@H](COP(=O)(O)OP(=O)(O)OP(=O)(O)O)O1 ; changes: RT-T215Y K219Q ; read by: ELISA ; value: 1.24
CCC1(c2ccc(CCc3ccccc3)cc2)Oc2ccccc2-n2cccc2C1=O ; changes: RT-V106A ; read by: nucleotide incorporation / radiometric ; value: >58.8
Cc1c(Cc2c(F)cccc2F)nc(N(C)C)[nH]c1=O ; strain: IIIB ; changes: RT-L100I ; read by: nucleotide incorporation / radiometric ; value: 12.5
Cc1cn([C@H]2CC[C@@H](COP(=O)(O)OP(=O)(O)OP(=O)(O)O)O2)c(=O)[nH]c1=O ; changes: RT-M184V ; value: 2.53
Nc1ncnc2c1ncn2[C@@H]1O[C@H](COP(=O)(O)OP(=O)(O)OP(=O)(O)O)C[C@@H]1F ; changes: RT-Q151M ; read by: nucleotide incorporation / radiometric ; value: 2.46
CCC1(c2ccc(COc3ccccc3Cl)cc2)Oc2ccccc2-n2cccc2C1=O ; changes: RT-Y181I ; read by: nucleotide incorporation / radiometric ; value: >10
COc1ccccc1N1CCN(C(=O)c2cc3cc4c(cc3[nH]2)OCO4)CC1 ; strain: IIIB ; changes: RT-Y181C ; value: >3

Repeating the final 7 entries:

smiles | strain | changes | read by | value
Nc1ncnc2c1ncn2[C@H]1CC[C@@H](COP(=O)(O)OP(=O)(O)OP(=O)(O)O)O1 |  | RT-T215Y K219Q | ELISA | 1.24
CCC1(c2ccc(CCc3ccccc3)cc2)Oc2ccccc2-n2cccc2C1=O |  | RT-V106A | nucleotide incorporation / radiometric | >58.8
Cc1c(Cc2c(F)cccc2F)nc(N(C)C)[nH]c1=O | IIIB | RT-L100I | nucleotide incorporation / radiometric | 12.5
Cc1cn([C@H]2CC[C@@H](COP(=O)(O)OP(=O)(O)OP(=O)(O)O)O2)c(=O)[nH]c1=O |  | RT-M184V |  | 2.53
Nc1ncnc2c1ncn2[C@@H]1O[C@H](COP(=O)(O)OP(=O)(O)OP(=O)(O)O)C[C@@H]1F |  | RT-Q151M | nucleotide incorporation / radiometric | 2.46
CCC1(c2ccc(COc3ccccc3Cl)cc2)Oc2ccccc2-n2cccc2C1=O |  | RT-Y181I | nucleotide incorporation / radiometric | >10
COc1ccccc1N1CCN(C(=O)c2cc3cc4c(cc3[nH]2)OCO4)CC1 | IIIB | RT-Y181C |  | >3

Fold resistance has wild type as its base. An empty or dashed field is not shown.